Columns and labels:
FMDV 3D^pol = FMDV 3D^pol (Foot-and-mouth disease virus serotype O, UniProt P03305); test: cell-based; conditions: IC50 of FMDV 3Dpol activity (GFP expression)
BHK-21 cells = conditions: hamster
in vitro = conditions: hamster, Cytotoxicity (CC50)

Chains of the proteins cited; added tags and fusions are not shown. Residues count along the entry.
UniProt P03305, 1863-2332 limits assumed: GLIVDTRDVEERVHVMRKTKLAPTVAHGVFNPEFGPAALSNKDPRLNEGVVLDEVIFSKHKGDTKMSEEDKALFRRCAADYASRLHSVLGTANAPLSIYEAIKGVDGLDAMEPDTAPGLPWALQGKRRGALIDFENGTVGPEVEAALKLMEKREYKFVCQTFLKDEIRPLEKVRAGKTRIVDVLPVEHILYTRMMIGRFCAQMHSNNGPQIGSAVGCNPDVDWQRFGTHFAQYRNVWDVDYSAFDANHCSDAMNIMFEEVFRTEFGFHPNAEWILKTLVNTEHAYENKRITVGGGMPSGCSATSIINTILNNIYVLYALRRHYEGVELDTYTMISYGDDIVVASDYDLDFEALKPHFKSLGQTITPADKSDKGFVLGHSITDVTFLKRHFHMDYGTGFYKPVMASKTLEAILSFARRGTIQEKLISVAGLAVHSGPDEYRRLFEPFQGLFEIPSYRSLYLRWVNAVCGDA

Compound | IC50 (FMDV 3D^pol) [µM] | CC50 (BHK-21 cells) [µM] | CC50 (in vitro) [µM]
CC1=CC(=O)[C@@H](O)[C@]2(C)[C@H]3[C@@H](O)[C@H](O)[C@@]4(C)OC[C@@]35[C@@H](C[C@@H]12)OC(=O)[C@H](O)[C@]54O [Bruceine D] | 0.37 ± 0.44 | 4.51 ± 0.68 | 4.51 ± 0.68
Brusatol | – | 18.5 ± 1.27 | –

From publication PMC11281344 (Viruses, 2024)
